# Assay results published in patent US9447116B2, “Inhibitors of HIV replication” (priority 2010, dated 2016).
# Assays:
# [1] = tested on: HIV-1 virus (NL4.3 strain); test: MT-2 based antiviral assay (S8737E); format: cell-based; settings: read-out: Antiviral Activity (S8737E); HIV-1 NL4.3 replication in MT2 cells, 3 days, β-Gal readout in JC53BL cells
# Description: MT-2 Based Antiviral Assay (S8737E)
# This assay is designed to determine the effects of small molecules on the replication of HIV-1 in the lymphobastoid cell line, MT2, and is able to detect the antiviral effect of compounds acting at any stage of the HIV-1 replication cycle. The assay, along with its associated cytotoxicity assay, was described in detail in 2005 in a paper by Cao et al (Antimicrobial Agents and Chemotherapy 2005; 49(9), p 3833-3841).
# MT2 cells are infected with the HIV-1 virus (NL4.3 strain; Adachi et al., Journal of Virology 1986) and transferred to assay plates containing serial dilutions of compounds to be tested. The assay plates are incubated for 3 days (MT2) to allow for several rounds of viral replication/infection to take place. At the end of this time, supernatant is transferred into new plates containing JC53BL cells.
# JC53BL cells express CXCR4, CCR5 and CD4 receptors, and HIV-1-LTR-β-Gal. Under normal culture conditions undetectable levels of β-Galactosidase are expressed, but in the presence of HIV-1, the viral Tat protein is able to activate the HIV-1-LTR in the JC53BL cells resulting in the increased expression of the β-Gal enzyme. The expression can be measured using the ‘FluorAce β-Galactosidase reporter’ assay. The levels of β-Gal are directly proportional to the levels of Tat (up to a threshold) allowing virus quantification. […]
# [2] = biological target: LEDGF-Integrase interaction (Human immunodeficiency virus type 1 group M subtype B, UniProt P12497); test: HTRF Interaction assay (S9118); set-up: species or system HIV; settings: read-out: HTRF Interaction assay (S9118); His6-tagged integrase and MBP-LEDGF integrase binding domain; table values
structure (smiles),measurement,setting,value
CCOC(C(=O)O)c1c(C)nc2sc3c(c2c1-c1ccc2ncn(C)c2c1)CCCC3 (centres unmarked),IC50,[1],15.7 µM
same,IC50,[2],> 100 µM
